Measurements as given in a flash point compilation (Sun et al. 2020).

Row | Structure (SMILES) | flash point [°C]
1 | CC(C)OP(OC(C)C)OC(C)C [tripropan-2-yl phosphite] | 74.00
2 | CC(=O)CCl [1-chloropropan-2-one] | 40.00
3 | ClCCOP(OCCCl)OCCCl [tris(2-chloroethyl) phosphite] | 138.00
4 | C1CN1 [aziridine] | -11.00
